Source: the NIST ThermoML archive (doi:10.1021/je034263v)
Numbers after ± are expanded uncertainties.

What was measured:
[1] = Liquid; for mass density / viscosity: 101.33 kPa
[2] = refractive index (Na D-line) (dimensionless); conditions: 101.33 kPa, Liquid, Standard Abbe refractometry

ClP(Cl)c1ccccc1 [dichlorophenylphosphine]
Conditions | refractive index | vapor or sublimation pressure [kPa]
[1], 349.26 K | – | 0.614 ± 0.092
[1], 352.16 K | – | 0.719 ± 0.11
[1], 355.14 K | – | 0.842 ± 0.12
[1], 357.45 K | – | 0.949 ± 0.13
[1], 360.35 K | – | 1.099 ± 0.15
[1], 363.46 K | – | 1.282 ± 0.17
[1], 366.4 K | – | 1.476 ± 0.16
[1], 369.51 K | – | 1.708 ± 0.17
[1], 374.35 K | – | 2.126 ± 0.18
[1], 377.89 K | – | 2.483 ± 0.19
[1], 380.29 K | – | 2.751 ± 0.19
[1], 383.46 K | – | 3.141 ± 0.2
[1], 388.15 K | – | 3.891 ± 0.22
[1], 392.55 K | – | 4.466 ± 0.24
[1], 395.55 K | – | 5.321 ± 0.26
[1], 398.35 K | – | 5.853 ± 0.27
[1], 402.05 K | – | 6.279 ± 0.28
[1], 404.85 K | – | 6.866 ± 0.3
[1], 408.49 K | – | 7.653 ± 0.32
[1], 412.55 K | – | 9.346 ± 0.36
[1], 414.04 K | – | 9.813 ± 0.37
[1], 415.05 K | – | 10.19 ± 0.39
[1], 418.03 K | – | 11.39 ± 0.41
[1], 420.25 K | – | 12.28 ± 0.43
[1], 424.25 K | – | 12.97 ± 0.45
[1], 426.06 K | – | 13.91 ± 0.48
[2], 293.15 K | 1.595 ± 0.0007 | –

O=P(Cl)(Cl)c1ccccc1 [phenylphosphonic dichloride]
Conditions | mass density [kg/m3] | refractive index | vapor or sublimation pressure [kPa] | viscosity [mPa·s]
[1], 293.17 K | 1400 ± 1.4 | – | – | –
[1], 293.21 K | – | – | – | 4.687 ± 0.2
[1], 299.19 K | 1394.9 ± 1.5 | – | – | –
[1], 299.58 K | – | – | – | 4.143 ± 0.18
[1], 303.25 K | 1390.8 ± 1.5 | – | – | –
[1], 303.77 K | – | – | – | 3.674 ± 0.16
[1], 307.97 K | – | – | – | 3.331 ± 0.15
[1], 309.05 K | 1384.8 ± 1.6 | – | – | –
[1], 312.95 K | – | – | – | 2.979 ± 0.13
[1], 313.75 K | 1380.1 ± 1.6 | – | – | –
[1], 318.95 K | – | – | – | 2.642 ± 0.12
[1], 319.25 K | 1373.9 ± 1.6 | – | – | –
[1], 322.75 K | – | – | – | 2.451 ± 0.11
[1], 323.31 K | 1369.7 ± 1.7 | – | – | –
[1], 327.85 K | – | – | – | 2.247 ± 0.1
[1], 329.4 K | 1364.3 ± 1.7 | – | – | –
[1], 332.35 K | – | – | – | 2.046 ± 0.094
[1], 334.75 K | 1358.7 ± 1.8 | – | – | –
[1], 338.25 K | – | – | – | 1.873 ± 0.087
[1], 338.85 K | 1354.3 ± 1.8 | – | – | –
[1], 341.85 K | – | – | – | 1.77 ± 0.082
[1], 342.85 K | 1350.4 ± 1.8 | – | – | –
[1], 377.15 K | – | – | 0.529 ± 0.082 | –
[1], 382.65 K | – | – | 0.646 ± 0.096 | –
[1], 387.96 K | – | – | 0.813 ± 0.12 | –
[1], 393.09 K | – | – | 1.031 ± 0.14 | –
[1], 397.4 K | – | – | 1.277 ± 0.17 | –
[1], 402.6 K | – | – | 1.535 ± 0.16 | –
[1], 410.21 K | – | – | 2.011 ± 0.17 | –
[1], 413.57 K | – | – | 2.266 ± 0.18 | –
[1], 415.95 K | – | – | 2.693 ± 0.19 | –
[1], 419.63 K | – | – | 3.136 ± 0.2 | –
[1], 424.32 K | – | – | 3.788 ± 0.22 | –
[1], 428.54 K | – | – | 4.226 ± 0.23 | –
[1], 431.35 K | – | – | 5 ± 0.25 | –
[1], 435.95 K | – | – | 5.666 ± 0.27 | –
[1], 439.85 K | – | – | 6.506 ± 0.29 | –
[1], 442.85 K | – | – | 7.533 ± 0.31 | –
[1], 446.35 K | – | – | 7.826 ± 0.32 | –
[1], 448.84 K | – | – | 8.893 ± 0.34 | –
[1], 456.05 K | – | – | 10.53 ± 0.39 | –
[1], 457.65 K | – | – | 11.53 ± 0.41 | –
[2], 298.15 K | – | 1.5586 ± 0.0007 | – | –
